{"source": "paper PMC11274511", "about": "“Synthesis of Substituted 1,2,4-Triazole-3-Thione Nucleosides Using E. coli Purine Nucleoside Phosphorylase” (Biomolecules, 2024)", "test_system": "HSV-1/L2/R^ACV", "details": "Strain HSV-1/L2/R^ACV", "protocol": "Herpes simplex virus type 1 (HSV-1) strain L2 was obtained from the State’s collection of viruses at FSBI «N. F. Gamaleya National Research Centre for Epidemiology and Microbiology, Russian Ministry of Health, Russia» («D. I. Ivanovsky Institute of Virology» subdivision).\nAntiviral activity in vitro was measured by the method of the cytopathic effect (CPE) inhibition assay. In 96-well plastic plates with the 24 h generated cell monolayer, 2-fold serial dilutions of the compounds were prepared. Cells infected with MOI of 0.1 PFU/cell were incubated at 37 °C in 5% CO2 atmosphere. […] Antiviral activity was assessed by determining of IC50 and IC95.\nThree controls were used: (1) Toxicity control. Uninfected cells were incubated in the presence of the drug in the same concentration range as in the experiment. (2) Virus control. […] (3) Cell control. Uninfected cell cultures were incubated in the maintenance medium, which contained no drug."}
{"substance": "5-Phenyl-1,2,4-triazole-3-thione [Compound 4]", "values": [{"measurement": "SI (ratio of CC50 to IC50)", "result": ">2"}]}
